Measured values as given in the supplement of paper PMC12637763.
The other results are listed elsewhere or left out. Env chains of viruses from a treatment-interruption trial, translated from the printed DNA. IC50 / IC80 of two broadly neutralizing antibodies; lower = more sensitive virus; >50 µg/ml means not reached and <0.001 µg/ml is below the lowest dose. No active / inactive call.

B1: HIV-1 Env, rebound clone, antibody arm (protein)
chain: MRVKGIRRNYQHWWRGDIWRWGMMLLGMLMICSATGSLWVTVYYGVPVWKEATTTLFCASDAKAYDTEAHNVWATHACVPTDPNPQEVPLVNVTENFNMWKNNMVEQMHEDIISLWDQSLKPCVKLTPLCVTLHCTEIGTNATNNSSHNPNPTTNSSTSPTPMGEIKNCSFNVTTNRRDKVQKTYAFFYNMDIKQIAEEDNTSYILTSCNTSVITQACPKVSFEPIPIHYCAPAGFAILKCNDTNFNGTGPCKNVTTVQCTHGIKPVVSTQLLLNGSLARGEVMIRSENISNNAKIIIVQLKEPVEINCTRPNNNTRKSITIGPGRAFFGTDIIGGIRQAHCNISREKWNYTLYQISEKLRSHFVNKTIVFNQSSGGDPEIVMHSFNCGGEFFYCDTSKLFNSTWHTNSTANNTGDNSTVTLPCRIKQIVNMWQEVGKAMYAPPIKGPIRCSSKITGVLLTRDGGTNNTNTTETFRPAGGDMRDNWRSELYKYKVVQIEPLGIAPTQAKRRVVQRDKRAVGIGALFLGFLGTAGSTMGAASITLTVQARNLLSGIVQQQNNLLRAIEAQQHLLQLTVWGIKQLQARVLAVESYLKDQQLLGIWGCSGKLICTTAVPWNNSWSNKSLDYIWNNMTWMEWEREIDNYTEYIYDLLEASQNQQEKNEQELLALDKWASLWSWFSITQWLWYIKLFLIIVGGLIGLRIVFAVFSIVNRVRQGYSPLSLQTLLPAQRGPDRPEGIEEEGGEQDRGRSIRLVDGFLALFWDDLRSLCLFSYHRLRDLLLIVTRIVELLGRRGWETLKYCWNLLQYWGQELKKSAVSLFNFSAIAVAEGTDRVIEVVQRIWRAIIHIPRRIRQGLEGALL
B2: HIV-1 Env, rebound clone, antibody arm (protein)
chain: MKVKGIRKNWPHLWWTWGTMLLGMLMICSAVDQSWVTVYYGVPVWKEANTTLFCASDAKAYHTEAHNVWATHACVPTDPDPQEVVLENVTENFNMWKNNMVEQMHEDIISLWDQSLKPCVKLTPLCVTLNCTDFCRNDSCRNDSYGNNSYSMGNIEKGEIKNCSFNITTDIGEKKNNIYALFYKLDITPINNTTYRMISCNTSVITQACPKISFEPIPIHYCTPAGFALLKCNDKKFNGTGLCKNVSTVQCTHGIKPVVSTQLLLNGSLAEEEVVVRSENLTDNSKTIIVQLNETVKINCIRPNNNTRTGINIGPGRAWYATTDIIGDIRQAHCNIRKDQWNKTLQQVAIKLREQFGNNKTIIFKQSSGGDPEIVMHSVNCGGEFLYCNTTQLFNSTWDNDALNSTWNNTSASNEGNISLPCRIKQIINRWQGVGKAMYAPPIQGIIKCSSNITGLLLTRDGGNTGNQSNSNETFRPGGGNMRDNWRSELYKYKVVKIEPLGVAPTRARRRVVQREKRAVGTIGAMFLGFLGAAGSTMGAASMTLTVQARQLLSGIVRQQNNLLKAIEAQQHLLQLTVWGIKQLQARVLAVERYLKDQQLLGIWGCSGKLICTTSVPWNASWSNKSLDQIWNNMTWMEWEREVGNYTQLIYTLIEESQNQQEKNEQELLELDKWDSLWNWFTITKWLWYIKIFIMIVGGLIGLRIVFAVLSIVKKVRQGYSPLSLQTLLPAQRGPDRPEGTDEEGGERGSDTSVRLVTGFLALFWDDLRSLCLFSYHHLRDLLLIVARIVELLGRRGWEVLKYWWNLLQYWIQELKNSAVSLLNTTAIAVAEGTDRIIEVIQRIFRAFLHIPRRIRQGLERALL
B3: HIV-1 Env, rebound clone, antibody arm (protein)
chain: MKVKGIRKNWPHLWWTWGTMLLGMLMICSAVDQSWVTVYYGVPVWKEANTTLFCASDAKAYHTEAHNVWATHACVPTDPDPQEVVLENVTENFNMWKNNMVEQMHEDIISLWDQSLKPCVKLTPLCVTLNCTDFCRNDSCRNDSYGNNSYSMGNIEKGEIKNCSFNITTDIGEKKNNIYALFYKLDITPINNTTYRMISCNTSVITQACPKISFEPIPIHYCTPAGFALLKCNDKKFNGTGLCKNVSTVQCTHGIKPVVSTQLLLNGSLAEEEVVVRSENLTDNSKTIIVQLNETVKINCIRPNNNTRTGINIGPGRAWYATTDIIGDIRQAHCNIRKDQWNKTLQQVAIKLREQFGNNKTIIFKQSSGGDPEIVMHSVNCGGEFLYCNTTQLFNSTWDNDALNSTWNNTSASNEGNISLPCRIKQIINRWQGVGKAMYAPPIQGIIKCSSNITGLLLTRDGGNTGNQSNSNETFRPGGGNMRDNWRSELYKYKVVKIEPLGVAPTRARRRVVQREKRAVGTIGAMFLGFLGAAGSTMGAASMTLTVQARQLLSGIVRQQNNLLKAIEAQQHLLQLTVWGIKQLQARVLAVERYLKDQQLLGIWGCSGKLICTTSVPWNASWSNKSLDQIWNNMTWMEWEREVGNYTQLIYTLIEESQNQQEKNEQELLELDKWDSLWNWFTITKWLWYIKIFIMIVGGLIGLRIVFAVLSIVKRVRQGYSPLSLQTLLPAQRGPDRPEGTDEEGGERGSDTSVRLVTGFLALFWDDLRSLCLFSYHHLRDLLLIVARIVELLGRRGWEVLKYWWNLLQYWIQELKNSAVSLLNTTAIAVAEGTDRIIEVIQRIFRAFLHIPRRIRQGLERALL
B4: HIV-1 Env, rebound clone, antibody arm (protein)
chain: MRVREIRRNYLWRWGTLLLGILMMICSADNWWVTVYYGVPVWKEATTTLFCASDAKAYETEVHNVWATHACVPTDPNPQEVALENVTENFNMWKNNMVEQMQEDIISLWDQSLKPCVELTPLCVTLNCTNVNNTRTNSTISGPTAKPGEEEMKNCSFNITTGIRDKIKKEYALFYKLDVVPIDDSNTSYRLISCNTSVIKQACPKVSFEPIPIHYCAPAGFAILKCRDKQFNGTGPCRNVSTVQCTHGIKPVVTTQLLLNGSLAEEEVVIRSANFSDNAKIIIVQLNESVQINCTRPNNNTRKSIPIGPGRAFYATGDIIGDIRQAHCSISKTRWNNTLKLIREKLKTQFGDKTIVFNQSSGGDPEIVTHSFNCGGEFFYCNTTPLFNSTEGSNTTAENNTTDIITLQCRIKQIINMWQKVGKAMYAPPIRGNISCSSNITGLLLTRDGGNTTDNGSEIFRPGGGDMRDNWRSELYKYKVVKIEPIGLAPTKAKRRVVQREKRALGMGALFLGFLGAAGSTMGAASVTLTVQARQLLSGIVQQQNNLLRAIEAQQHLLQLTVWGIKQLQARVLAVESYLRDQQLLGIWGCSGKLICTTAVPWNISWSKSKSWNKTNLADIWENMTWMQWESEIDNYTNIIYQLIEESQNQQEKNEKDLLELDKWASLWNWFSISNWLWYIKLFIMIVGGLIGLRIIFSVLSIVNRVRQGYSPLSFQTRPPAARGHDRPEGIEEGGGDRDRDRSNQLVDGFLALIWVDLRSLCLFSYHRLRDFLLVVTRIVELLGRRGWEILKYWWNLLQYWSQELKNSAVSLLNATAIAVAEGTDRVIEIVQRAFRAIIHIPTRIRQGFERALL
B5: HIV-1 Env, rebound clone, antibody arm (protein)
chain: MRVREIRRNYLWRWGTLLLGILMMICSADNWWVTVYYGVPVWKEATTTLFCASDAKAYETEVHNVWATHACVPTDPNPQEVALENVTENFNMWKNNMVEQMQEDIISLWDQSLKPCVELTPLCVTLNCTNVNNTRTNSTISGPTAKPGEEEMKNCSFNITTGIRDKIKKEYALFYKLDVVPIDDSNTSYRLISCNTSVIKQACPKVSFEPIPIHYCAPAGFAILKCRDKQFNGTGPCRNVSTVQCTHEIKPVVTTQLLLNGSLAEEEVVIRSANFSDNAKIIIVQLNESVQINCTRPNNNTRKSIPIGPGRAFYATGDIIGDIRQAHCSISKTRWNNTLKLIREKLKTQFGDKTIVFNQSSGGDPEIVTHSFNCGGEFFYCNTTPLFNSTEGSNTTAENNTTDIITLQCRIKQIINMWQKVGKAMYAPPIRGNISCSSNITGLLLTRDGGNTTDNGSEIFRPGGGDMRDNWRSELYKYKVVKIEPIGLAPTKAKRRVVQREKRALGMGALFLGFLGAAGSTMGAASVTLTVQARQLLSGIVQQQNNLLRAIEAQQHLLQLTVWGIKQLQARVLAVESYLRDQQLLGIWGCSGKLICTTAVPWNISWSKSKSWNKTNLADIWENMTWMQWESEIDNYTNIIYQLIEESQNQQEKNEKDLLELDKWASLWNWFSISNWLWYIKLFIMIVGGLIGLRIIFSVLSIVNRVRQGYSPLSFQTRPPAARGHDRPEGIEEGGGDRDRDRSNQLVDGFLALIWVDLRSLCLFSYHRLRDFLLVVTRIVELLGRRGWEILKYWWNLLQYWSQELKNSAVSLLNATAIAVAEGTDRVIEIVQRAFRAIIHIPTRIRQGFERALL
B6: HIV-1 Env, rebound clone, antibody arm (protein)
chain: MRVREIRRNYLWRWGTLLLGILMMICSADNWWVTVYYGVPVWKEATTTLFCASDAKAYETEVHNVWATHACVPTDPNPQEVALENVTENFNMWKNNMVEQMQEDIISLWDQSLKPCVELTPLCVTLNCTNVNNTRTNSTISGPTAKPGEEEMKNCSFNITTGIRDKIKKEYALFYKLDVVPIDDSNTSYRLISCNTSVIKQACPKVSFEPIPIHYCAPAGFAILKCRDKQFNGTGPCRNVSTVQCTHGIKPVVTTQLLLNGSLAEEEVVIRSANFSDNAKIIIVQLNESVQINCTRPNNNTRKSIPIGPGRAFYATGDIIGDIRQAHCSISKTRWNNTLKLIREKLKTQFGDKTIVFNQSSGGDPEIATHSFNCGGEFFYCNTTPLFNSTEGSNTTAENNTTDIITLQCRIKQIINMWQKVGKAMYAPPIRGNISCSSNITGLLLTRDGGNTTDNGSEIFRPGGGDMRDNWRSELYKYKVVKIEPIGLAPTKAKRRVVQREKRALGMGALFLGFLGAAGSTMGAASVTLTVQARQLLSGIVQQQNNLLRAIEAQQHLLQLTVWGIKQLQARVLAVESYLRDQQLLGIWGCSGKLICTTAVPWNISWSKSKSWNKTNLADIWENMTWMQWESEIDNYTNIIYQLIEESQNQQEKNEKDLLELDKWASLWNWFSISNWLWYIKLFIMIVGGLIGLRIIFSVLSIVNRVRQGYSPLSFQTRPPAARGHDRPEGIEEGGGDRDRDRSNQLVDGFLALIWVDLRSLCLFSYHRLRDFLLVVTRIVELLGRRGWEILKYWWNLLQYWSQELKNSAVSLLNATAIAVAEGTDRVIEIVQRAFRAIIHIPTRIRQGFERALL

Each binder was assayed against antibody 10-1074 (assay: neutralization IC50; higher = virus less sensitive to the antibody).
Experimental: (§1)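 Pseudovirus bearing the Env chain mixed with antibody, from 50 µg/ml in fivefold dilutions, on TZM-bl reporter cells, in duplicate.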

Binder	neutralization IC50 [µg/mL]
B1	5.27
B2	18.4
B3	> 50
B4	> 50
B5	> 50
B6	> 50

These binders were tested against antibody 3BNC117 in the same assay as above.
Experimental: as §1

Binder	neutralization IC50 [µg/mL]
B1	0.063
B2	0.063
B3	0.066
B4	0.279
B5	0.199
B6	0.232

What follows are binders tested against antibody 10-1074 (assay: neutralization IC80; higher = virus less sensitive to the antibody).
Experimental: as §1

Binder	neutralization IC80 [µg/mL]
B1	> 50
B2	46
B3	> 50
B4	> 50
B5	> 50
B6	> 50

These binders were tested against antibody 3BNC117 in the same assay as above.
Experimental: as §1

Binder	neutralization IC80 [µg/mL]
B1	0.224
B2	0.175
B3	0.186
B4	0.929
B5	0.641
B6	1.03
